Measured values from several laboratories, pooled; numbers as filed in NIAID ChemDB.

Common to all: growth or infection tests; organism: Aspergillus fumigatus; read-out: MIC80

An empty or dashed field is not shown.

SMILES | strain or isolate | read by | value
O=C1CSC(=O)N1CC(O)(Cn1nccn1)c1ccc(F)cc1F |  |  | >100 µg/mL
CCCC(CC(=O)O)C1=C(O)C(CC=C(C)C)(CC=C(C)C)C(=O)C2=C1O[C@H](C)[C@@H](C)C2=O | CBS 113.26 |  | 16 µg/mL
CCCCCCCCCCC(=O)OC1CCN(CC(O)(Cn2cncn2)c2ccc(F)cc2F)CC1 | 0504656 | broth dilution | 2.031 µM
CN1CCN(c2n[nH]c(N3C(=O)CS[C@@H]3c3ccc4c(c3)OCO4)n2)CC1 | 182.99 | broth dilution | 3.12 µg/mL
OC(CN=C1CCN(CCCOc2ccccc2)CC1)(Cn1cncn1)c1ccc(F)cc1F |  |  | >136 µM
O=C(/C=C/c1cccc([N+](=O)[O-])c1)OC1CCN(CC(O)(Cn2cncn2)c2ccc(F)cc2F)CC1 | 0504656 | broth dilution | 0.487 µM
Cc1c(C(C)n2ccnc2)c2ccccc2n1Cc1ccc(Cl)cc1Cl | AF980003 |  | >100 µg/mL
CCCCN(Cc1cn(Cc2ccccc2C#N)nn1)CC(O)(Cn1cncn1)c1ccc(F)cc1F |  |  | >64 µg/mL
CN(CCCOc1ccccc1)CC(O)(Cn1cncn1)c1ccc(F)cc1F |  |  | >159 µM
COc1c(O)c(CC=C(C)C)c2oc3c(O)cccc3c(=O)c2c1O |  |  | >250 µg/mL
CCCCN(Cc1cn(Cc2cccc(C#N)c2)nn1)CC(O)(Cn1cncn1)c1ccc(F)cc1F |  |  | >64 µg/mL
COc1ccc(/C=C/C(=O)OC2CCN(CC(O)(Cn3cncn3)c3ccc(F)cc3F)CC2)cc1 | 0504656 | broth dilution | 2.007 µM
C[C@@H](n1cc2cc(Br)ccc2n1)[C@](O)(Cn1cncn1)c1ccc(F)cc1F | ATCC 16424 |  | 0.25 µg/mL
CC(C)C(=O)OC1CCN(CC(O)(Cn2cncn2)c2ccc(F)cc2F)CC1 | 0504656 | broth dilution | 2.45 µM
C[C@@H](N1CCN(Cc2cn(-c3ccc(F)cc3)c3ccccc23)CC1)[C@](O)(Cn1cncn1)c1ccc(F)cc1F | ATCC 16424 | resazurin | 1 µg/mL
CC(C)(O)C1Cc2ccc3c(=O)c4ccccc4oc3c2O1 |  |  | 62 µg/mL
C[C@@H](N1CCN(Cc2cn(Cc3ccc(Cl)cc3)c3ccccc23)CC1)[C@](O)(Cn1cncn1)c1ccc(F)cc1F | ATCC 16424 | resazurin | 16 µg/mL
CCCCN(Cc1cn(Cc2ccc(Cl)cc2Cl)nn1)CC(O)(Cn1cncn1)c1ccc(F)cc1F |  |  | >64 µg/mL
O=C1S/C(=C\c2ccc(Br)cc2)C(=O)N1CC(O)(Cn1nccn1)c1ccc(F)cc1F |  |  | >100 µg/mL
O=C(/C=C/c1ccccc1F)OC1CCN(CC(O)(Cn2cncn2)c2ccc(F)cc2F)CC1 | 0504656 | broth dilution | 2.057 µM
O=C1S/C(=C\c2ccccc2)C(=O)N1CC(O)(Cn1nccn1)c1ccc(F)cc1F |  |  | >100 µg/mL
O=c1c2cc(O)ccc2oc2cc(O)cc(O)c12 |  |  | 250 µg/mL
CCCCC(c1cn(Cc2ccc(Cl)cc2)c2ccccc12)n1ccnc1 | AF980003 |  | >100 µg/mL
C[C@@H]1[C@H](O)[C@@H](C)/C=C/C=C/C=C/C=C/C=C/C=C/C=C/[C@H](O[C@@H]2O[C@H](C)[C@@H](O)[C@H](N)[C@@H]2O)C[C@@H]2O[C@](O)(C[C@@H](O)C[C@@H](O)[C@H](O)CC[C@@H](O)C[C@@H](O)CC(=O)O[C@H]1C)C[C@H](O)[C@H]2C(=O)O | CB 11326 | broth dilution | 8 µg/mL
COc1cc2c(=O)c3ccccc3oc2cc1O | CBS 113.26 |  | 16 µg/mL
C[C@@H](N1CCN(Cc2cn(Cc3ccc(F)cc3)c3c(F)cccc23)CC1)[C@](O)(Cn1cncn1)c1ccc(F)cc1F | ATCC 16424 | resazurin | 16 µg/mL
COc1c2c(c3oc4c(O)cccc4c(=O)c3c1O)C=CC(C)(C)O2 |  |  | 8 µg/mL
CCCCN(Cc1cn(Cc2ccccc2Br)nn1)CC(O)(Cn1cncn1)c1ccc(F)cc1F |  |  | >64 µg/mL
O=C(/C=C/c1ccc([N+](=O)[O-])cc1)OC1CCN(CC(O)(Cn2cncn2)c2ccc(F)cc2F)CC1 | 0504656 | broth dilution | 0.487 µM
COc1c(O)cc2oc3c(O)cccc3c(=O)c2c1O | CBS 113.26 |  | 31 µg/mL
O=C(CC1=Nc2ccccc2C1)OC1CCN(CC(O)(Cn2cncn2)c2ccc(F)cc2F)CC1 | 0504656 | broth dilution | 8.078 µM
C[C@@H](N1CCN(Cc2cn(Cc3ccc(F)cc3)c3ccccc23)CC1)[C@](O)(Cn1cncn1)c1ccc(F)cc1F | ATCC 16424 | resazurin | 16 µg/mL
NC(=O)N/N=C/c1ccsc1 | CBS 113.26 | turbidity / absorbance | >250 µg/mL
CCCC(CC(=O)O)c1c2c(c(O)c3c1O[C@@H](C)[C@H](C)C3=O)C=CC(C)(C)O2 | CBS 113.26 |  | >250 µg/mL
CCC(C)n1ncn(-c2ccc(N3CCN(c4ccc(OC[C@H]5CO[C@](Cn6cncn6)(c6ccc(Cl)cc6Cl)O5)cc4)CC3)cc2)c1=O |  |  | 2.83 µM
Cc1nn([C@H](C)[C@](O)(Cn2cncn2)c2ccc(F)cc2F)c2cc(F)ccc12 | ATCC 16424 |  | 16 µg/mL
O=c1c2ccccc2oc2ccc(O)cc12 | CBS 113.26 |  | 31 µg/mL
C[C@@H](N1CCN(Cc2cn(Cc3cccc(C(F)(F)F)c3)c3ccccc23)CC1)[C@](O)(Cn1cncn1)c1ccc(F)cc1F | ATCC 16424 | resazurin | 8 µg/mL
CCOC(C)=O |  |  | 32 µg/mL
Fc1ccc(Cn2cc(Cn3ccnc3)c3ccccc32)cc1 | AF980003 |  | 13 µg/mL
C[C@@H](N1CCN(Cc2cn(Cc3ccc(F)cc3)c3c(Cl)cccc23)CC1)[C@](O)(Cn1cncn1)c1ccc(F)cc1F | ATCC 16424 | resazurin | 8 µg/mL
NN(Cc1ccccc1)CC(O)(Cn1cncn1)c1ccc(F)cc1F | ATCC 16424 |  | 2 µg/mL
CCCCN(Cc1cn(Cc2ccc(C)cc2)nn1)CC(O)(Cn1cncn1)c1ccc(F)cc1F |  |  | >64 µg/mL
Fc1cc(F)c(OCc2nc3c(OCCCNCc4cccnc4)cccc3o2)c(F)c1 |  |  | >64 µg/mL

A second listing of 5 rows from above:

SMILES	strain or isolate	read by	value
COc1ccc(/C=C/C(=O)OC2CCN(CC(O)(Cn3cncn3)c3ccc(F)cc3F)CC2)cc1	0504656	broth dilution	2.007 µM
C[C@@H](N1CCN(Cc2cn(Cc3ccc(Cl)cc3)c3ccccc23)CC1)[C@](O)(Cn1cncn1)c1ccc(F)cc1F	ATCC 16424	resazurin	16 µg/mL
CCCC(CC(=O)O)C1=C(O)C(CC=C(C)C)(CC=C(C)C)C(=O)C2=C1O[C@H](C)[C@@H](C)C2=O	CBS 113.26		16 µg/mL
CC(C)(O)C1Cc2ccc3c(=O)c4ccccc4oc3c2O1			62 µg/mL
CCCCN(Cc1cn(Cc2cccc(C#N)c2)nn1)CC(O)(Cn1cncn1)c1ccc(F)cc1F			>64 µg/mL

A number after MIC or MFC names an inhibition level or a share of isolates. Lines come from different laboratories, so protocols vary.